The data set has as its system RBP42. Kind of data set: EMSA. The note with it: recombinant protein. (Mobility shift assays separate free from complexed probe on a gel.)

For at least one entry, the source does not settle the construct or the ends of the probe.

On to “GCGACUCGCCAAGAAGCACAACGUGCACCUCCCCAUAUGCCAUGAGGUCUACA [target RNA (Fig. 2E)]”, for which the binding result is “binds”.
